According to ChEMBL document CHEMBL1121863, “New analgesic drugs derived from phencyclidine” (1981):

What follows are compounds tested on Trypanosoma cruzi (assay: In vitro inhibitory activity against growth of Trypanosoma cruzi at a concentration of 30 uM; 20-40%).
Compound CCC(COC(C)=O)OC(COC(C)=O)n1cnc2c(N)ncnc21 (centres undefined) has a growth inhibition (GI) of 40%.
CC(=O)OCC(CCl)OC(COC(C)=O)n1cnc2c(N)ncnc21 (centres undefined) gave a growth inhibition (GI) of 40%.
Work on CC(=O)OCC(CO)OC(COC(C)=O)n1cnc2c(F)nc(N)nc21 (centres undefined) yielded a growth inhibition (GI) of 40%.
CC(=O)OCC(CO)OC(COC(C)=O)n1cnc2c(N)nc(N)nc21 (centres undefined) gave a growth inhibition (GI) of 40%.
